Measured values from several laboratories, pooled; numbers as filed in NIAID ChemDB.

Shared fields: whole-cell or culture tests; organism: Mycobacterium avium complex; endpoint: MIC

Conditions beyond the fields shown may differ between rows. a–b is a range or a potency band.

| SMILES | strain | value |
|---|---|---|
| CC[C@H]1OC(=O)[C@H](C)[C@@H](O[C@H]2C[C@@](C)(OC)[C@@H](OC(C)=O)[C@H](C)O2)[C@H](C)[C@@H](O[C@@H]2O[C@H](C)C[C@H](N(C)C)[C@H]2O)C(C)(O)C[C@@H](C)/C(=N\OCCCCc2ccccc2)[C@H](C)[C@@H](O)[C@]1(C)O | 20092 (clarithromycin-resistant) | 1.56 µg/mL |
| COc1ccc(NCc2cnc3nc(N)nc(N)c3c2C)cc1F | NJ211 | ≤0.13 µg/mL |
| C[C@@H]1CN(c2c(F)c(N)c3c(=O)c(C(=O)O)cn(C4CC4)c3c2F)C[C@H](C)N1 | N-269 (HIV-) | 4 µg/mL |
| CCNC(=O)OCCn1sc2ccccc2c1=S | ATCC 15769 | 4 µg/mL |
| C/C(=N\NC(N)=S)c1cccnc1 | 101 | 0.5 µg/mL |
| Cc1c(CNc2ccc3c4c(cccc24)-c2ccccc2-3)cnc2nc(N)nc(N)c12 | NJ211 | ≤0.13 µg/mL |
| Cc1onc(-c2ccccc2Cl)c1C(=O)N[C@@H]1C(=O)N2[C@@H]1SC(C)(C)[C@@H]2C(=O)O | CIPT 140310012 | 100 µg/mL |
| CO[C@H]1/C=C/O[C@@]2(C)Oc3c(C)c(O)c4c(O)c(c5c(c4c3C2=O)NC2(CCN(CC(C)C)CC2)N=5)=NC(=O)/C(C)=C\C=C\[C@H](C)[C@H](O)[C@@H](C)[C@@H](O)[C@@H](C)[C@H](OC(C)=O)[C@@H]1C | N-269 (HIV-) | 0.125 µg/mL |
| Cc1c(CNc2cc(F)ccc2F)cnc2nc(N)nc(N)c12 | NJ168 | ≤0.13 µg/mL |
| CCCCCCCCCCCCCCNNC(=O)O[C@H]1[C@H](O[C@@H]2[C@@H](C)[C@H](O[C@H]3C[C@@](C)(OC)[C@@H](OC(C)=O)[C@H](C)O3)[C@@H](C)C(=O)O[C@H](CC)[C@@](C)(O)[C@H](O)[C@@H](C)/C(=N/OCCCC3CCCCC3)[C@H](C)CC2(C)O)O[C@H](C)C[C@@H]1N(C)C | 20096 (clarithromycin-resistant) | >50 µg/mL |
| CO[C@H]1/C=C/O[C@@]2(C)Oc3c(C)c(O)c4c(=O)c(c5oc6cc(N7CCN(CC(C)C)CC7)cc(=O)c6nc5c4c3=C2O)NC(=O)/C(C)=C\C=C\[C@H](C)[C@H](O)[C@@H](C)[C@@H](O)[C@@H](C)[C@H](OC(C)=O)[C@@H]1C | N-259 (HIV-) | 0.0313 µg/mL |
| CC[C@H]1OC(=O)[C@H](C)[C@@H](O[C@H]2C[C@@](C)(OC)[C@@H](O)[C@H](C)O2)[C@H](C)[C@@H](O[C@@H]2O[C@H](C)C[C@H](N(C)C)[C@H]2O)[C@](C)(OC)C[C@@H](C)C(=O)[C@H](C)[C@@H](O)[C@]1(C)O | MO-1 | 2 µg/mL |
| CC[C@H]1OC(=O)[C@H](C)[C@@H](OC(=O)Cc2cccnc2)[C@H](C)[C@@H](O[C@@H]2O[C@H](C)C[C@H](N(C)C)[C@H]2O)C(C)(O)C[C@@H](C)/C(=N\OCCCOc2ccccc2)[C@H](C)[C@@H](O)[C@]1(C)O | 20096 (clarithromycin-resistant) | 6.25 µg/mL |
| CC(C)NC(=O)OCCN=c1ssc2ccccc12 | AN3 | 2 µg/mL |
| CC[C@H]1OC(=O)[C@H](C)[C@@H](O[C@H]2C[C@@](C)(OC)[C@@H](OC(C)=O)[C@H](C)O2)[C@H](C)[C@@H](O[C@@H]2O[C@H](C)C[C@H](N(C)C)[C@H]2OC(=O)NNCCc2ccccc2)C(C)(O)C[C@@H](C)/C(=N\OCCCC2CCCCC2)[C@H](C)[C@@H](O)[C@]1(C)O | 20096 (clarithromycin-resistant) | 1.56 µg/mL |
| NNC(=O)c1ccncc1 | 11012 | 20–25 µg/mL |
| CO[C@H]1/C=C/O[C@@]2(C)Oc3c(C)c(O)c4c(O)c(c5c(c4c3C2=O)NC2(CCN(CC(C)C)CC2)N=5)=NC(=O)/C(C)=C\C=C\[C@H](C)[C@H](O)[C@@H](C)[C@@H](O)[C@@H](C)[C@H](OC(C)=O)[C@@H]1C | CIPT 140310006 | 0.05 µg/mL |
| Cc1ccc(C)c(NCc2cnc3nc(N)nc(N)c3c2C)c1 | NJ211 | ≤0.13 µg/mL |
| NNC(=O)c1ccncc1 | N-980 (HIV+) | 2 µg/mL |
| CCCNC(=O)OCCn1sc2ccccc2c1=O | ATCC 15769 | >32 µg/mL |
| CCNC(=O)[C@@H](NC(=O)Cc1ccccc1)[C@@H]1N[C@@H](C(=O)NCCNC(=O)[C@@H]2N[C@@H]([C@H](NC(=O)Cc3ccccc3)C(=O)NCC)SC2(C)C)C(C)(C)S1 | CIPT 140310002 | 25 µg/mL |
| COc1cc(-c2ccccc2)ccc1NCc1cnc2nc(N)nc(N)c2c1C | NJ211 | ≤0.13 µg/mL |
| CC(C)NC(=O)OCCn1sc2ccccc2c1=O | ISS 486 | 16 µg/mL |
| C[C@@H]1CN(c2c(F)c(N)c3c(=O)c(C(=O)O)cn(C4CC4)c3c2F)C[C@H](C)N1 | ATCC 13950 | 0.5 µg/mL |
| CC(C)N=C(N)/N=C(\N)NOCCCOc1cc(Cl)c(Cl)cc1Cl | 1753 | 32 µg/mL |
| CC(C)NC(=O)OCCn1sc2ccccc2c1=S | ATCC 15769 | 8 µg/mL |
| CC1(C)S[C@@H]2[C@H](NC(=O)C(C(=O)O)c3ccccc3)C(=O)N2[C@H]1C(=O)O | CIPT 140310002 | 25 µg/mL |

2 of the rows above, restated:

SMILES	strain	value
COc1ccc(NCc2cnc3nc(N)nc(N)c3c2C)cc1F	NJ211	≤0.13 µg/mL
NNC(=O)c1ccncc1	N-980 (HIV+)	2 µg/mL